Results of unrelated studies side by side (data: NIAID ChemDB).

Common to all: whole-cell or culture tests; agent: HIV-1; cell line: MT-4; read-out: EC50

Blank or dashed fields: not listed here. ECn is the concentration giving n% inhibition of infection, replication or growth. Rows are shuffled and stem from different studies.

smiles	strain or isolate	changes	read by	result
Cc1cn([C@H]2C[C@H](N=[N+]=[N-])[C@@H](CO)O2)c(=O)[nH]c1=O			cytopathic effect	>0.0004 µM
CSc1ccc(OP(=O)(OC[C@@H]2CC[C@H](n3cnc4c(N)ncnc43)O2)OC[C@@H]2CC[C@H](n3cnc4c(N)ncnc43)O2)cc1	IIIB		cytopathic effect / trypan blue	67 µM
CC(C)=CCN1c2cc(Cl)cc3[nH]c(=S)n(c23)C[C@@H]1C		RT-L74V K101E		<0.4 µM
Cc1cn([C@H]2C[C@H](N=[N+]=[N-])[C@@H](COP(=O)(Oc3cccnc3)Oc3cccnc3)O2)c(=O)[nH]c1=O	IIIB		MTT	0.02 µM
Nc1ncnc2c1ncn2[C@H]1C=C[C@@H](CO)O1	IIIB		cytopathic effect / trypan blue	5 µM
CC1(C)C2=CC(=O)C(c3ccccc3)([N+](=O)[O-])C(=O)N2c2ccc(Cl)cc21	RF		cytopathic effect / MTT	7.2 µM
CC(C)CN(C[C@@H](O)[C@H](Cc1ccccc1)NC(=O)O[C@H]1CCOC1)S(=O)(=O)c1ccc(N)cc1	HXB2 WT			0.0325 µM
Cc1cn([C@]2(c3ccccc3)C[C@@H]2COCP(=O)(O)O)c(=O)[nH]c1=O			cytopathic effect	>100 µM
Cc1nc(COc2ccc(C[C@H](NC(=O)O[C@H]3CO[C@H]4OCC[C@H]43)[C@H](O)CN(CC(C)C)S(=O)(=O)c3ccc4c(c3)OCO4)cc2)cs1	HXB2 WT			0.000375 µM
Cc1cccc(N2C(=O)CSC2c2ccc(N(C)C)cc2)n1	IIIB		cytopathic effect	73.7 µM
Cc1cc(C)nc(NS(=O)(=O)c2ccc(N=C3C(=O)Nc4ccccc43)cc2)n1	IIIB		cytopathic effect / MTT	8 µg/mL
CC1SC(c2c(F)cccc2F)N(Cc2ccco2)C1=O	IIIB		cytopathic effect	108 µM
Cc1cn([C@H]2CC[C@@H](CO)O2)c(=O)[nH]c1=O	IIIB		cytopathic effect / trypan blue	1.1 µM
Cc1ccc2c(c1)c1ccc(C)cc1c1ccc(CCCCCN3C(=O)CCC3=O)cc21			cytopathic effect	30 µM
O=[N+]([O-])c1cc(CN2CCCNCCNCCCNCC2)cc(CN2CCCNCCNCCCNCC2)c1	NL4-3		cytopathic effect / MTT	0.134 µg/mL
CC(C)(C)NC(=O)[C@@H]1CN(Cc2cccnc2)CCN1C[C@@H](O)C[C@@H](Cc1ccccc1)C(=O)N[C@H]1c2ccccc2C[C@H]1O	NL4-3 PR S12T I15V I19L M36I R41K H69K L89M CLONE 5( C )		cytopathic effect / MTT	0.0066 µM
C[C@H](NC(=O)[C@H](CCCN=C(N)N)NC[C@@H](N)CCCN=C(N)N)c1cccc2ccccc12			cytopathic effect	46 µM
Cc1cc(C)c(Oc2ncc([N+](=O)[O-])c(Nc3ccc(C#N)cc3)n2)c(C)c1	RES056		MTT	>25 µM
Fc1cccc(F)c1[C@H]1SCc2nc3ccccc3n21	NDK		cytopathic effect / MTT	0.2 µg/mL
C[C@H](NC[C@H](CCCN=C(N)N)NC(=O)[C@@H](N)CCCN=C(N)N)c1cccc2ccccc12			cytopathic effect	52 µM
Cc1cn([C@H]2C[C@H](N=[N+]=[N-])[C@@H](CO)O2)c(=O)[nH]c1=O	RES056		MTT	0.015 µM
Cc1cn([C@@H]2O[C@@H]3[C@H](O)CO[C@]3(CO)[C@H]2O)c(=O)[nH]c1=O				>100 µM
Cc1c(C(C)c2c(F)cccc2F)nc(SC2CCCC2)[nH]c1=O	IIIB		cytopathic effect / MTT	0.005 µM
CCOCn1c(Cc2ccccc2)c(C(C)C)c(=O)[nH]c1=O	Recombinant	RT-P225H	cytopathic effect	0.046 µM
C[C@H](N[C@@H](CCCN=C(N)N)C(=O)N[C@@H](CCCN=C(N)N)C(=O)c1ccc(F)cc1)c1cccc2ccccc12			cytopathic effect	61 µM
Cc1cn([C@H]2C=C[C@@H](CO)O2)c(=O)[nH]c1=O	AZT-resistant (RT M41L T215Y)	RT-M41L T215Y	cytopathic effect	0.25 µM
O=C1CSC(c2ccnc3ccccc23)N1c1ccccn1	IIIB		cytopathic effect	33.51 µM
CC(C)=CCOc1cc(NC(=S)c2ccoc2C)ccc1Cl			cytopathic effect	0.004 µM
CN(C)C(=O)c1cnnn1[C@@H]1O[C@H](CO[Si](C)(C)C(C)(C)C)C2(OS(=O)(=O)C=C2N)[C@H]1O[Si](C)(C)C(C)(C)C	IIIB		cytopathic effect / MTT	0.056 µM
c1cc(CN2CCCNCCCNCCNCCC2)cc(CN2CCCNCCCNCCNCCC2)c1	NL4-3		cytopathic effect / MTT	0.2 µg/mL
Cc1cc(Br)cc(C)c1Oc1ncc(NC(=O)C(F)(F)F)c(Nc2ccc(C#N)cc2)n1	IIIB		MTT	0.053 µM
Cc1c(O)cccc1C(=O)N[C@@H](CSc1ccccc1)[C@H](O)CN1C[C@H]2CCCC[C@H]2C[C@H]1C(=O)NC(C)(C)C	HXB2 WT			0.0272 µM
CS(=O)(=O)c1ccc(OP(=O)(OC[C@@H]2C=C[C@H](n3ccc(=O)[nH]c3=O)O2)OC[C@@H]2C=C[C@H](n3ccc(=O)[nH]c3=O)O2)cc1	IIIB		cytopathic effect / trypan blue	>250 µM
NC(N)=NCCC[C@H](NC(=O)[C@@H](N)Cc1ccc2ccccc2c1)C(=O)C1CCN(C(=O)c2ccc(F)cc2)CC1			cytopathic effect	7.7 µM
CC(C)(C)NC(=O)[C@@H]1CN(C(C)(C)c2cc3cnccc3o2)CCN1C[C@@H](O)C[C@@H](Cc1ccccc1)C(=O)N[C@H]1c2ccccc2C[C@H]1O	NL4-3			<0.015 µM
Cc1cn([C@H]2C[C@H](N=[N+]=[N-])[C@@H](CO)O2)c(=O)[nH]c1=O	IIIB		cytopathic effect / MTT	0.0012 µg/mL
C=C(C)OC(=O)N1c2cc(Cl)ccc2NC(=S)C1(C)C	Recombinant	RT-P225H	cytopathic effect	0.008 µM
CC1(C)C2=CC(=O)C(O)(c3ccccc3)C(=O)N2c2ccccc21	RF		cytopathic effect / MTT	>100 µM
O=c1ccn([C@H]2CC[C@@H](CO)O2)c(=O)[nH]1	IIIB		cytopathic effect / trypan blue	129 µM
CC(C)(C)NC(=O)[C@@H]1C[C@@H]2CCCC[C@@H]2CN1C[C@@H](O)[C@H](Cc1ccccc1)NC(=O)[C@H](CC(N)=O)NC(=O)c1ccc2ccccc2n1	NL4-3 PR-S12T I15V I19L M36I R41K H69K L89M I93L CLONE 6( C )		cytopathic effect / MTT	0.0026 µM
Clc1cc(CN2CCCNCCNCCCNCC2)c(Cl)cc1CN1CCCNCCNCCCNCC1	AOM		cytopathic effect / MTT	0.086 µg/mL
Cc1nc(N2C(=O)CSC2c2c(Cl)cccc2Cl)ccc1Br	IIIB		cytopathic effect	1.03 µM
Nc1ccn([C@H]2CC[C@@H](CO)O2)c(=O)n1	IIIB		cytopathic effect / MTT	0.0034 µg/mL
Cc1cn([C@H]2C=C[C@@H](COP(=O)(OC[C@@H]3C=C[C@H](n4cc(C)c(=O)[nH]c4=O)O3)Oc3ccc(S(C)(=O)=O)cc3)O2)c(=O)[nH]c1=O	IIIB		cytopathic effect / trypan blue	1.8 µM
Nc1ccn([C@H]2CC[C@@H](CO)O2)c(=O)n1	HXB2	HXB2-RTwt	cytopathic effect / MTT	0.89 µM
Cc1ccc2c(c1)C(=Nc1ccc(S(=O)(=O)Nc3nc(C)cc(C)n3)cc1)C(=O)N2	IIIB		cytopathic effect / MTT	8.1 µg/mL
Cc1cccc(N2C(=O)CSC2c2cccnc2)n1	IIIB		cytopathic effect	316 µM
CC1(C)C2=CC(=O)C(O)(c3ccccc3)C(=O)N2c2ccc(Cl)cc21	RF		cytopathic effect / MTT	0.58 µM
C1CNCCNCCCN2CCCNCCNCCCN(C1)CC2	AOM		cytopathic effect / MTT	86.7 µg/mL
CC(C)Nc1cccnc1N1CCN(C(=O)c2cc3cc(NS(C)(=O)=O)ccc3[nH]2)CC1	RES056		MTT	>36 µM
CC(C)=CCN1Cc2cc(Cl)cc3[nH]c(=O)n(c23)C[C@@H]1C	Recombinant	RT-V106A P225H	cytopathic effect	5.1 µM
Nc1ncnc2c1ncn2[C@]1(c2ccccc2)C[C@@H]1CO			cytopathic effect	>100 µM
Cc1cc(C#N)cc(C)c1Oc1ncc(NC(=O)C(F)(F)F)c(Nc2ccc(C#N)cc2)n1	RES056		MTT	5 µM
CCOCn1c(Cc2cc(C)cc(C)c2)c(CC)c(=O)[nH]c1=O	IIIB		cytopathic effect / MTT	0.00046 µg/mL
Cc1cc(C#N)cc(C)c1Oc1ncc([N+](=O)[O-])c(Nc2ccc(C#N)cc2)n1	IIIB		MTT	0.062 µM
Cc1cn([C@H]2CC[C@@H](COP(=O)(OC[C@@H]3CC[C@H](n4cc(C)c(=O)[nH]c4=O)O3)Oc3ccc(S(C)(=O)=O)cc3)O2)c(=O)[nH]c1=O	IIIB		cytopathic effect / trypan blue	177 µM
CC(C)(C)NC(=O)[C@@H]1CCCN1C(=O)[C@@H](O)[C@H](Cc1ccccc1)NC(=O)[C@H](CC(N)=O)NC(=O)COc1cccc2ccccc12	IIIB		cytopathic effect / MTT	0.09 µg/mL
O=C1CSC(c2c(F)cccc2F)N1c1cccc(C(F)(F)F)c1	IIIB		cytopathic effect	35.9 µM

Again, the opening 5 rows:

| smiles | strain or isolate | changes | read by | result |
|---|---|---|---|---|
| Cc1cn([C@H]2C[C@H](N=[N+]=[N-])[C@@H](CO)O2)c(=O)[nH]c1=O |  |  | cytopathic effect | >0.0004 µM |
| CSc1ccc(OP(=O)(OC[C@@H]2CC[C@H](n3cnc4c(N)ncnc43)O2)OC[C@@H]2CC[C@H](n3cnc4c(N)ncnc43)O2)cc1 | IIIB |  | cytopathic effect / trypan blue | 67 µM |
| CC(C)=CCN1c2cc(Cl)cc3[nH]c(=S)n(c23)C[C@@H]1C |  | RT-L74V K101E |  | <0.4 µM |
| Cc1cn([C@H]2C[C@H](N=[N+]=[N-])[C@@H](COP(=O)(Oc3cccnc3)Oc3cccnc3)O2)c(=O)[nH]c1=O | IIIB |  | MTT | 0.02 µM |
| Nc1ncnc2c1ncn2[C@H]1C=C[C@@H](CO)O1 | IIIB |  | cytopathic effect / trypan blue | 5 µM |